Patent US20170137895

What was measured:
[1] = system: T1, Plasmodium falciparum topoisomerase I (pfTopoI), blood lysate (Plasmodium falciparum); assay: binding assay; conditions: 37 C, protein in an extract
T1 sequence (limits assumed): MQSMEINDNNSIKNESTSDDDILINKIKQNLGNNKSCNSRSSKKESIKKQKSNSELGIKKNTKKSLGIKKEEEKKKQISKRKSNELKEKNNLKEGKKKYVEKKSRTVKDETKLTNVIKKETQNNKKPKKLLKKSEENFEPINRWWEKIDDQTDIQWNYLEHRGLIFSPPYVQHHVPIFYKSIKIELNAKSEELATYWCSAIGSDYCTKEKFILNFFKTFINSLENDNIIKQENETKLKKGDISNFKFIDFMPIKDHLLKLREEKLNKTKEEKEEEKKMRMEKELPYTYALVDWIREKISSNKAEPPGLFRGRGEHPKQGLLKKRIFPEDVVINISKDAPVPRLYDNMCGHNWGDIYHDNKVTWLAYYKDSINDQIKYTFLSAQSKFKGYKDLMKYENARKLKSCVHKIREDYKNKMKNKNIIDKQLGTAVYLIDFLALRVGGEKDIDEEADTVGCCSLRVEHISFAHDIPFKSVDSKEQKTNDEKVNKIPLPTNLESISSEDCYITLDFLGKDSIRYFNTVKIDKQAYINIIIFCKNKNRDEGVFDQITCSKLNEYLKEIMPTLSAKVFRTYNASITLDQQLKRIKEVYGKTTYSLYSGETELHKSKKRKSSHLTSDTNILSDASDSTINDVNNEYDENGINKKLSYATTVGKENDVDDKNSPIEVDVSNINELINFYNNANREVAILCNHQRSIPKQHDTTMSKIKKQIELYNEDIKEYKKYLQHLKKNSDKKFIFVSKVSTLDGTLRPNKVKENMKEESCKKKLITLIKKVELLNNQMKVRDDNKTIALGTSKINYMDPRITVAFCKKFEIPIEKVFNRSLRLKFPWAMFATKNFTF

[2] = system: T2, Plasmodium falciparum topoisomerase I (pfTopoI) (Plasmodium falciparum); assay: activity assay; conditions: 5' amino-C6-T on both strands, SEQ:1 strand covalently immobilised; SHOfLE cleavage-ligation, silver stain; 10 mM Tris pH 7.5, 1 mM EDTA, 300 mM NaCl, 37 C; purified recombinant protein; protein details: expressed in yeast from pYES2.1
T2 sequence (limits assumed): T1 sequence (limits assumed)

Row | Sequence | binding result ([1]; amine-linked SEQ:3 strand immobilised on CodeLink slide, one-step assay, detection below 5 parasites/ul, TEN3 buffer) | activity on this sequence [2] | binding result ([1]; 5' amino-C6-T on both strands, SEQ:1 strand covalently immobilised, infected blood lysates compared with uninfected, SHOfLE, EDTA, 300 mM NaCl)
1 | ACTACCATTCTGAGTCGTTCGATCTAAAAGACTTAGA / ATTTTTCTAAGTCTTTTAGATCGAACGACTCAGAATGATGCATGTATACTAAACTCACAAATTAGAGC | binds |  | 
2 | ACTACCATTCTGAGTCGTTCGAAGTTCCTATACTTT / TCTAGAAAGTATAGGAACTTCGAACGACTCAGAATG [pfTopoI SHOfLE substrate duplex] |  | active | binds

For part of these data: At least one result comes from cells or an extract, where the contact may be indirect. Where a protein sequence is shown, tags need not be part of it. For part of these data: The exact form of at least one protein or probe is not confirmed.
